1 substance from publication PMC4382515 can be followed below.

The data set relates to N[C@@H](CCC(=O)O)C(=O)O. The experiment in a line: purified protein. Conditions: pH 4.6; 25.0 °C.

What is called Km is the concentration of substrate that gives half-maximal velocity. In general, kcat/Km refers to the second-order rate constant that governs catalysis at low substrate concentration. Turning to BmGadB (Brucella microti CCM 4915), the Michaelis constant (Km) stood at 2.68 ± 0.17 mM and the kcat/Km is 6660 M⁻¹ s⁻¹.
